Measurements from article PMC11939955, “Enhancing Antimicrobial Peptides from Frog Skin: A Rational Approach” (Biomolecules, 2025).

Key:
[1] = Dynamic light scattering of LUVs; details: DLS, LUVs of E. coli lipid extract
[2] = Carboxyfluorescein (CF) release from LUVs; set-up: species or system E. coli; details: 8, 32, 50 and 64 μM peptide, 10 min
Description: Large unilamellar vesicles (LUVs) were prepared with the total lipid extract of E. coli (Avanti Polar Lipids). For this, an aliquot of 1 mg of lipids dissolved in chloroform was deposited into a glass tube and dried by evaporation with nitrogen (N2). The glass tube underwent vacuum treatment to eliminate any residual solvent traces. The lipids were then hydrated in 200 μL of a 5,6-carboxyfluorescein (CF) solution (Sigma-Aldrich) at a concentration of 49 mM, pH 8, and 431 mOsm/kgH2O through nine cycles of heating (70 °C for 30 s), vortexing (1 min), and freezing (ice bath for 30 s). A polycarbonate filter with a pore size of 100 nm was employed to standardize the liposome size. Twenty-one extrusion cycles were conducted at 40 °C through the filter, resulting in LUVs with an average diameter of 100 nm. Size exclusion chromatography (Sephadex G-25) was utilized to remove the CF outside of the LUVs.
The fluorescence spectra of the CF-filled LUVs were measured using a FluoroMax3 Jobin Yvon spectrofluorometer (Horiba Jobin Yvon; Edison, NJ, USA). A 200 μL aliquot of the LUVs containing 100 μM CF was utilized for the experiment. Excitation was performed over a wavelength range of 400 to 540 nm, with the emission recorded at 517 nm. The peptides were added at various final concentrations (8, 32, 50, and 64 μM), and the fluorescence was assessed 10 min after each addition. […]

Substance | Vesicle aggregation, in words [1] | CF release from LUVs, in words [2]
RAGALWPAIRGAIKKIIKK-NH2 [dHP3-50.137] | promoted vesicle aggregation | 
RLGALIPAIRGAIKKLIKK-NH2 [dHP3-50] | promoted vesicle aggregation | intermediate behaviors
RLGKLIPRIAKAIGRLIRK-OH [dHP3-84] | did not induce membrane disruption or aggregation | did not affect bilayer permeability; also recorded: did not promote the release of CF
RRGKLIPRLAKAIGRLIRK-OH [dHP3-84.39] | promoted vesicle aggregation | 

“Also recorded” adds a separate entry of the source. Some compounds share one wording; it may come from a single statement. Where no end group is shown, it is not given here.
